Results of unrelated studies side by side (data: NIAID ChemDB).

Common to all: tests in culture; species: Mycobacterium kansasii

An empty or dashed field is not shown. Rows are shuffled and stem from different studies. A number after MIC or MFC names an inhibition level or a share of isolates. a–b is a range or a potency band.

smiles | read by | endpoint | conditions | strain or isolate | result
Cc1ccc2oc(=O)n(-c3ccc(Cl)c(Cl)c3)c(=S)c2c1 | - | MIC | 14 d | 6509/96 | 8 µM
O=C(Nc1cccc(Cl)c1)c1ccc(Cl)cc1OS(=O)(=O)c1ccccc1 | - | MIC | 21 d | 6509/96 | 500 µM
NC(=O)c1cnccn1 | - | MIC | 7 d | 6509/96 | 250–1000 µM
Cc1ccc2oc(=S)n(-c3cccc(F)c3)c(=S)c2c1 | - | MIC | 21 d | My 235/80 | 16 µM
O=C(NNC(=O)c1ccncc1)Nc1ccc(Cl)c(Cl)c1 | broth dilution | MIC100 | 7 d | My 235/80 | 125 µM
O=C(Oc1ccc(Cl)cc1C(=O)Nc1ccc(Br)cc1)c1cnccn1 | - | MIC | 7 d | 6509/96 | 2 µM
O=C(Nc1cccc(Br)c1)c1cc(Cl)ccc1OS(=O)(=O)c1ccccc1 | - | MIC | 7 d | 6509/96 | 8 µM
O=C(NC1CCCCC1)N(C(=O)c1cnccn1)C1CCCCC1 | - | MIC | 7 d | 6509/96 | 500 µM
Clc1ccc(Nc2nnc(-c3ccncc3)o2)cc1Cl | broth dilution | MIC100 | 21 d | My 235/80 | >125 µM
Cc1ccc2oc(=S)n(-c3ccc(F)cc3)c(=S)c2c1 | - | MIC | 14 d | 6509/96 | 4 µM
O=C(NNC(=O)c1ccncc1)Nc1ccc(Br)c(F)c1 | broth dilution | MIC100 | 7 d | My 6509/96 | 125 µM
Cc1ccc(-n2c(=S)oc3ccc(Br)cc3c2=S)cc1 | - | MIC | 21 d | My 235/80 | 4 µM
O=C(Nc1cccc(C(F)(F)F)c1)c1cc(Cl)ccc1OS(=O)(=O)c1ccccc1 | - | MIC | 21 d | 6509/96 | 16 µM
S=c1oc2ccc(Br)cc2c(=S)n1-c1cccc(Cl)c1 | - | MIC | 21 d | My 235/80 | 4 µM
O=C(Oc1cc(Cl)ccc1C(=O)Nc1ccc(Cl)c(Cl)c1)c1cnccn1 | - | MIC | 14 d | 235/80 | 4 µM
O=C(Nc1ccc(F)cc1)c1cc(Cl)ccc1OS(=O)(=O)c1ccccc1 | - | MIC | 14 d | 235/80 | 8 µM
O=c1oc2ccc(Br)cc2c(=S)n1-c1ccccc1 | - | MIC | 14 d | My 235/80 | 2 µM
O=C(Oc1cc(Cl)ccc1C(=O)Nc1ccc(Br)cc1)c1cnccn1 | - | MIC | 14 d | 6509/96 | 2 µM
O=c1oc2ccc(F)cc2c(=S)n1-c1ccccc1 | - | MIC | 21 d | 6509/96 | 1 µM
CC(C)c1ccc(NC(=O)NNC(=O)c2ccncc2)cc1 | broth dilution | MIC100 | 14 d | My 6509/96 | 8 µM
Fc1ccc2oc(=S)n(-c3ccccc3)c(=S)c2c1 | - | MIC | 14 d | 6509/96 | 1 µM
O=C(NNC(=O)c1ccncc1)Nc1cc(Cl)cc(Cl)c1 | broth dilution | MIC100 | 14 d | My 235/80 | 125 µM
O=C(Oc1ccc(Cl)cc1C(=O)Nc1cccc(C(F)(F)F)c1)c1cnccn1 | - | MIC | 14 d | 6509/96 | 8 µM
O=C(NNC(=O)c1ccncc1)Nc1ccc(C(F)(F)F)cc1 | broth dilution | MIC100 | 14 d | My 6509/96 | 125 µM
NNC(=O)c1ccncc1 | - | MIC | 21 d | 6509/96 | 4–8 µM
O=C(NNC(=O)c1ccncc1)Nc1ccc(F)c(Cl)c1 | broth dilution | MIC100 | 14 d | My 235/80 | >125 µM
O=C(Nc1ccc(Cl)c(Cl)c1)c1cc(Cl)ccc1OS(=O)(=O)c1ccccc1 | - | MIC | 14 d | 235/80 | 8 µM

For reference, 2 entries again:

smiles,read by,endpoint,conditions,strain or isolate,result
O=C(Oc1ccc(Cl)cc1C(=O)Nc1cccc(C(F)(F)F)c1)c1cnccn1,-,MIC,14 d,6509/96,8 µM
O=C(NNC(=O)c1ccncc1)Nc1cc(Cl)cc(Cl)c1,broth dilution,MIC100,14 d,My 235/80,125 µM